Compound potency records, mixed from different reports. Data source: NIAID ChemDB in PubChem.

Common to all: toxicity to cultured cells; cells: Huh7.5; endpoint: CC50

CCn: concentration that lowers growth or viability of the cells by n%. An empty or dashed field is not shown. Conditions beyond the fields shown may differ between rows.

compound | method | result
C=CCN1c2ccccc2[C@]23CC(=O)N(Cc4ccccc4)C2=NC(C(=O)OC)=C(C(=O)OC)C13 | XTT | >100 µM
CC(C)=CCC/C=C/CC/C(C)=C/C=C/C(C)=C/C(=O)O | WST | 68 µM
Cc1n[nH]c(=O)c2cc3c(C)n[nH]c(=O)c3cc12 | MTS | >224 µM
O=C(Cn1sc2ccccc2c1=O)Nc1ccccc1I | ATP | 26 µM
C[C@@H]1O[C@@H](O[C@H]2[C@H](O)[C@@H](O)[C@H](O[C@H]3CC[C@]4(C)[C@H]5C=C[C@]67OC[C@@]8(CCC(C)(C)C[C@H]86)[C@@H](O)C[C@@]7(C)[C@]5(C)CC[C@H]4C3(C)C)O[C@@H]2CO[C@@H]2O[C@H](CO)[C@@H](O)[C@H](O)[C@H]2O)[C@H](O)[C@H](O)[C@H]1O | XTT | 717 µM
COc1ccc2c(c1)c(/C=C(\C)C(=O)Nc1ccc(C(C)(C)C)cc1)cn2Cc1ccccc1 | MTT | >100 µM
CN(C)CCCOc1ccc2nc(N)n(CCCN(C)C)c2c1 | - | 665 µM
O=C(O)CCn1ncc2c(=O)[nH]cnc21 | MTS | 180 µM
C/C(=C\c1cn(S(=O)(=O)Cc2ccccc2)c2ccccc12)C(=O)Nc1ccc(C(C)(C)C)cc1 | MTT | 54.1 µM
N#Cc1c(SCc2ccncc2)sc2c(=O)[nH]c(=O)[nH]c12 | MTS | >224 µM
CCC[C@H](NC(=O)[C@@H]1[C@H]2CCC[C@H]2CN1C(=O)[C@@H](NC(=O)[C@@H](NC(=O)c1cnccn1)C1CCCCC1)C(C)(C)C)C(=O)C(=O)NC1CC1 | MTT | 2920 µM
COC(=O)C1=C(C(=O)OC)C2N(CCOCCN3c4ccccc4[C@]45CC(=O)N(Cc6ccccc6)C4=NC(C(=O)OC)=C(C(=O)OC)C35)C3C=CC=CC3[C@@]23CCC(=O)N(Cc2ccccc2)C3=N1 | XTT | >100 µM
CN1C[C@H](O)[C@@H](O)[C@H](O)[C@H]1CO | MTT | >500 µM
C/C(=C\c1cn(Cc2ccccc2)c2ccc(C#N)cc12)C(=O)Nc1ccc(C(C)(C)C)cc1 | MTT | >100 µM
CC1=C(/C=C/C(C)=C/C=C/C(C)=C/C(=O)O)C(C)(C)CCC1 | WST | >100 µM
C=Cc1c(C)c2cc3nc(c4c5nc(cc6[nH]c(cc1[nH]2)c(C)c6CC)C(C)C5C(=O)C4CC(=O)OC)[C@@H](CCC(=O)OC/C=C(\C)CCC[C@@H](C)CCC[C@@H](C)CCCC(C)C)[C@@H]3C | WST | 328 µg/mL
COc1ccc2c(c1)c(/C=C(\C)C(=O)Nc1ccc(C(C)(C)C)cc1)cn2S(=O)(=O)Cc1ccccc1 | MTT | 66 µM
CCOC(=O)c1c(CS(=O)(=O)c2ccccc2)n(C)c2ccc(CN(C)C)cc12 | resazurin | >50 µM
OC[C@@H]1[C@@H](O)[C@H](O)[C@@H](O)CN1CCCCCC1(O)CCCCC1 | MTT | >500 µM
CN(C)CCCn1cnc2c(=O)oc3ccccc3c21 | MTS | >224 µM
CCOC(=O)c1c(CS(=O)(=O)c2ccccc2)n(C)c2ccc(CN3CCCNCC3)cc12 | resazurin | >50 µM
COc1cccc2c1c(/C=C(\C)C(=O)Nc1ccc(C(C)(C)C)cc1)cn2C(=O)OCc1ccccc1 | MTT | >100 µM
Cc1ccc(CNc2ccc3nc[nH]c3c2)o1 | MTT | >200 µM
COc1c(O)cc2oc3cc(O)c(CC=C(C)C)c(O)c3c(=O)c2c1CC=C(C)C | MTT | 9.9 µM
C/C(=C\c1cn(S(=O)(=O)Cc2ccccc2)c2ccc(C#N)cc12)C(=O)Nc1ccc(C(C)(C)C)cc1 | MTT | 17 µM